Experimental data published in PubChem BioAssay (NCATS).
The entries are a selection whose mix differs from that of the whole data set. Inconclusive results are not listed. Activity calls are given as the source filed them. Calls come from the whole dose curve.

Amino acid sequences for entries named in this document (tags omitted).
UniProt P09958, whole entry: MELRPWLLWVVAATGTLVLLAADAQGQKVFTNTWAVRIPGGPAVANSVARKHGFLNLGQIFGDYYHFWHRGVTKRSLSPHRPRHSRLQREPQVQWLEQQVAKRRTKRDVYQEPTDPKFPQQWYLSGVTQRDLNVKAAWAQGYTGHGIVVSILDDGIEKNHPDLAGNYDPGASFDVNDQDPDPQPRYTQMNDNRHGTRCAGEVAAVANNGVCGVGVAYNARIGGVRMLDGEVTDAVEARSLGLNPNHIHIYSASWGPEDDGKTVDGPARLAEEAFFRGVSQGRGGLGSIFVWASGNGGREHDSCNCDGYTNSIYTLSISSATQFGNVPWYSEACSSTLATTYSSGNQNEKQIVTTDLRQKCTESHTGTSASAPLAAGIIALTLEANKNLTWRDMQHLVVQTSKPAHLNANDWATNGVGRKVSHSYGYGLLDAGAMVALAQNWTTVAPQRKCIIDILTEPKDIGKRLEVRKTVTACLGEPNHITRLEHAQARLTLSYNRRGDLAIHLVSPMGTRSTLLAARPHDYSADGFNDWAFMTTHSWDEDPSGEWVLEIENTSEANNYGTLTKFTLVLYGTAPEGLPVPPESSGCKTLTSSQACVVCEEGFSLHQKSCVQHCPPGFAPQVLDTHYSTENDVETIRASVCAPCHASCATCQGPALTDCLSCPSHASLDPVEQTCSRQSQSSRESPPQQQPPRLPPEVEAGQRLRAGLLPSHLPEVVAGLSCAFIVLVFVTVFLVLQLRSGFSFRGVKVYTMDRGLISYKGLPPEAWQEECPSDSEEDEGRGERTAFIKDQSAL
UniProt P00784, whole entry: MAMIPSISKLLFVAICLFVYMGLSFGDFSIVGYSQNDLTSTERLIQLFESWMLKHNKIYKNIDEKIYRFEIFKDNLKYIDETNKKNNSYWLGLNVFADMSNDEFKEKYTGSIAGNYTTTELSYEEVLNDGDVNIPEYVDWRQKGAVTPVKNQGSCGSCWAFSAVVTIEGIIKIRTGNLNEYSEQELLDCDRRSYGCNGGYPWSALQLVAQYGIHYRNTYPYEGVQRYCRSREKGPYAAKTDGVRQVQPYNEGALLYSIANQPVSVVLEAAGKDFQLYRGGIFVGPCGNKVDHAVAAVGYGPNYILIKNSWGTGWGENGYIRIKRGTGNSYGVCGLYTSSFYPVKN

Key:
[1] = biological target: Polyprotein P1234 (Chikungunya virus (strain S27-African prototype)) (UniProt Q8JUX6); assay: Secondary cell base assay for inhibitors of NSP2Pro Chikungunya virus (CHIKV) (AID 1964100); settings: cell-based CHIKV nsP2 protease reporter assay; at 51.1 µM (top of the series); note: nearly all actives have a fitted effect of over 70% in size
[2] = biological target: Polyprotein P1234 (Chikungunya virus (strain S27-African prototype)) (UniProt Q8JUX6); assay: Selectivity profile for inhibitors of NSP2Pro chikungunya virus (CHIKV): Full length NSP2 enzyme counterscreen (CHIKV-NSP2) (AID 1964101); settings: Full-length CHIKV NSP2 protease enzymatic counterscreen; at 50.7 µM (top of the series); note: nearly all actives have a fitted effect of over 65% in size
[3] = biological target: Furin (Homo sapiens) (UniProt P09958); assay: Selectivity profile for inhibitors of NSP2Pro chikungunya virus (CHIKV): Human furin counterscreen (AID 1964102); settings: Recombinant human furin enzymatic counterscreen, fluorogenic substrate; at 50.6 µM (top of the series)
[4] = biological target: Polyprotein P1234 (Chikungunya virus (strain S27-African prototype)) (UniProt Q8JUX6); assay: Selectivity profile for inhibitors of NSP2Pro chikungunya virus (CHIKV): Endogenous NS2/3 peptide Counterscreen (AID 1964103); settings: Purified CHIKV nsP2 protease, endogenous NS2/3 peptide cleavage; at 51 µM (top of the series); note: nearly all actives have a fitted effect of over 55% in size
[5] = biological target: Papain (Carica papaya) (UniProt P00784); assay: Selectivity profile for inhibitors of NSP2Pro chikungunya virus (CHIKV): Papain Counterscreen (AID 1964104); settings: purified papain protease activity, enzymatic inhibition; at 51 µM (top of the series)
[6] = tested on: Chikungunya virus nsP2 protease; assay: Confirmatory qHTS for inhibitors of NSP2Pro chikungunya virus (CHIKV) (AID 1964105); settings: CHIKV nsP2 protease enzymatic activity; at 25.5 µM (top of the series); note: nearly all actives have a fitted effect of over 75% in size

Measured: activity change, negative = inhibition
% is set by controls: 0 for no effect and ±100 for the full control effect.

CN(C)C1(CNC(=O)c2ccc(C(C)(C)C)cc2)CCCCC1
inactive: [1] 108% | [2] -25.7% | [3] -2.56% | [4] -13.6% | [5] -2.09% | [6] -2.85%
